Results of unrelated studies side by side (data: NIAID ChemDB).

Common to all: growth or infection tests; agent: Semliki Forest virus; cells: VERO; endpoint: EC50

Neighbouring rows are from separate reports. ECn: concentration that inhibits the pathogen or its effect by n%.

compound	read by	value
Nc1nc(Cl)c2ncn(C[C@H]3CC[C@@H](CO)C3)c2n1	cytopathic effect	>40 µg/mL
Nc1ncnc2c1ncn2C[C@H](O)CO	cytopathic effect	>400 µg/mL
NC(=O)c1ncn([C@@H]2O[C@H](CO)[C@@H](O)[C@H]2O)n1	plaque count	>250 µM
Nc1nc(N)c2nnn(C[C@H]3CC[C@@H](CO)C3)c2n1	cytopathic effect	>100 µg/mL
Nc1ncnc2c1c(Br)cn2[C@@H]1O[C@H](CO)[C@@H](O)[C@H]1O	cytopathic effect	>0.1 µg/mL
O=c1[nH]cnc2c1ncn2[C@@H]1C=C(CO)[C@@H](O)[C@H]1O	cytopathic effect	300 µg/mL
Nc1ncnc2c1ncn2C[C@H](O)CO	cytopathic effect	>400 µg/mL
Nc1ncnc2c1ncn2[C@H]1[C@H](O)[C@H](O)[C@]2(CO)O[C@H]12	cytopathic effect	2 µg/mL
NC(=O)c1ncn([C@@H]2O[C@H](CO)[C@@H](O)[C@H]2O)c1C#Cc1ccccc1	cytopathic effect	>400 µg/mL
O=c1[nH]c(=O)n([C@H]2C[C@H](O)[C@@H](CO)O2)cc1/C=C/Br	cytopathic effect	>400 µg/mL
Nc1nccc2c1ncn2[C@@H]1C[C@H](CO)[C@@H](O)[C@H]1O	cytopathic effect	>400 µg/mL
Cc1cn([C@H]2C[C@@H]3OC[C@H]2[C@@H]3CO)c(=O)[nH]c1=O	cytopathic effect	>400 µg/mL
CC(=O)N[C@H]1[C@@H](O[C@@H]2O[C@H](C[C@@H](O)[C@H]3O[C@@H](n4ccc(=O)[nH]c4=O)[C@H](O)[C@@H]3O)[C@H](O)[C@H](O)[C@H]2NC(=O)/C=C/CC(C)C)O[C@H](CO)[C@@H](O)[C@@H]1O	plaque count	<0.5 µg/mL
Nc1nccc2c1ncn2[C@@H]1C[C@H](CO)[C@@H](O)[C@H]1O	cytopathic effect	>400 µg/mL
Nc1ncnc2c1ncn2[C@@H]1C=C(CO)[C@@H](O)[C@H]1O	cytopathic effect	1 µg/mL
NC(=O)c1ncn([C@@H]2O[C@H](CO)[C@@H](O)[C@H]2O)c1C#CCCO	cytopathic effect	20 µg/mL
NC(=O)c1ccnc([C@@H]2O[C@H](CO)[C@@H](O)[C@H]2O)c1	cytopathic effect	>400 µg/mL
Nc1ncnc2c1ncn2[C@@H]1C[C@H](CO)[C@@H](O)C1	cytopathic effect	>100 µg/mL
Nc1nccc2c1ncn2[C@@H]1C[C@H](CO)[C@@H](O)[C@H]1O	cytopathic effect	>400 µg/mL
Nc1ccn([C@@H]2C[C@H](CO)[C@@H](O)[C@H]2O)c(=O)n1	cytopathic effect	3 µg/mL
Cc1cn([C@H]2C[C@H](O)[C@@H](CO)[C@@H]2C)c(=O)[nH]c1=O	cytopathic effect	>400 µg/mL
Nc1nccc2c1ncn2[C@@H]1C[C@H](CO)[C@@H](O)[C@H]1O	cytopathic effect	>400 µg/mL

Repeating the first 2 entries:

compound | read by | value
Nc1nc(Cl)c2ncn(C[C@H]3CC[C@@H](CO)C3)c2n1 | cytopathic effect | >40 µg/mL
Nc1ncnc2c1ncn2C[C@H](O)CO | cytopathic effect | >400 µg/mL